Fold change is the IC50 on the isolate divided by the IC50 on a reference virus; 1 = unchanged, higher = more resistant. Changes are given against the subtype B consensus. No active / inactive call. The values were gathered from many studies (numbered anew) with different assays, which the source does not name. Most viruses are clinical isolates; some are laboratory strains or clones with known resistance changes. Isolates with mixed residues are left out; stretches that were not sequenced show no change. Round top values that many isolates share are read here as limits; other very high values and 0.1 may be limits too.
What was measured:
Assay in all cases: fold change of IC50 against reference virus; higher = more resistant
[1] = compound: CC(C)Nc1cccnc1N1CCN(C(=O)c2cc3cc(NS(C)(=O)=O)ccc3[nH]2)CC1 [delavirdine]
Method: (§1)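 Cell-culture drug susceptibility tests of virus bearing the reverse transcriptase of each isolate, gathered from many studies.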

[2] = compound: Cc1ccnc2c1NC(=O)c1cccnc1N2C1CC1 [nevirapine]
Method: as §1

[3] = compound: O=C1Nc2ccc(Cl)cc2[C@@](C#CC2CC2)(C(F)(F)F)O1 [efavirenz]
Method: as §1

Test System	fold change of IC50 against reference virus [1]	fold change of IC50 against reference virus [2]	fold change of IC50 against reference virus [3]
HIV-1 isolate 1217 (reverse transcriptase changes: K11T K20R V21I V35T T39K V60I K122E D123N K173S D177G V179I G190A T200A I202V Q207A V245Q E248D T286A E291D I293V P294T E312D, study 14)	0.1	51	2.2
HIV-1 isolate 594 (reverse transcriptase changes: K20R V35I I50V V60I K65R S68R K73L L74V V75A K101Q K102R K122E D123N I135V Q151M I178V M184V G190V I195T G196E K219E V276I Q278E A288S E297R, study 55)	0.1	600	270
HIV-1 isolate 1411 (reverse transcriptase changes: K11T K20R V21I V35T T39K K43E D123N K173T Q174K D177E V179I Y181C I202V Q207A R211S V245Q E248D T286A E291D V292I I293V E312D, study 14)	45	208	1.8
HIV-1 isolate 1292 (reverse transcriptase changes: K20R V21I V35T T39R K43E V60I K103N K122E D123N K173S Q174K D177E Q207A R211N V245Q A272P E291D I293V P294T E312D D324E I326R, study 14)	26	33	18
HIV-1 isolate 1380 (reverse transcriptase changes: K102Q S162C F227L K277R, study 53)	0.1	3	0.5
HIV-1 isolate 1468 (reverse transcriptase changes: K101E K102Q S162C G190A K277R, study 110)	2	500	123
HIV-1 isolate 1068 (reverse transcriptase changes: E138A, study 50)	8.8		1.7
HIV-1 isolate 773 (reverse transcriptase changes: K102Q S162C G190S K277R I293V, study 55)	0.3	191	56
HIV-1 isolate 39 (reverse transcriptase changes: K49R K103N K122E S162C E169D I178M M184V I195T T200A R211K M230L V245M D250E K275Q V276I T286A I293V P294T, study 70)	≥ 250	600	270
HIV-1 isolate 1434 (reverse transcriptase changes: V35T E40D I50V K122E D123S I135T I142T K173S D177E V179I Y181C Q207A R211S F214L V245Q A272P E291D I293V P294T L310I E312D D324E, study 14)	30	55	0.9
HIV-1 isolate 726 (reverse transcriptase changes: D67N K70R K122E I178M G196E R211K K219Q, study 25)	3	1.6	0.8
HIV-1 isolate 266 (reverse transcriptase changes: L100I K102Q S162C K277R, study 110)	30	3.1	10
HIV-1 isolate 1509 (reverse transcriptase changes: K102Q S162C I178V K277R I293V K347R R358K V435I S468P, study 111)	1	1	1

Reference: the supplement of paper PMC3578754
